Pooled drug test results. Numbers come from NIAID ChemDB, via PubChem.

Shared fields: tests on isolated targets

Conditions beyond the fields shown may differ between rows.

| compound | target | species | dose | endpoint | value |
|---|---|---|---|---|---|
| COc1ccc(-c2ccc(-c3ccnc4cc(C(=O)NCCNC(C)=O)nn34)cc2)cc1 | RNA-dependent RNA polymerase | Hepatitis C virus |  | IC50 | >10 µM |
| O=C(Nc1ccsc1-c1nc(C(=O)O)c(O)c(=O)[nH]1)c1ccc(Cl)cc1 | HCV polymerase | Hepatitis C virus |  | IC50 | <25 µM |
| COc1nc(NCCc2c[nH]c3ccccc23)nc(Nc2ccc3cn[nH]c3c2)n1 | DNA polymerase | Hepatitis B virus | 0.1 µg/mL | inhibition | 26% |
| O=S(=O)(Nc1cnn2c(C3CCCCC3)c(-c3ccc(OCc4ccccc4)cc3)cnc12)c1ccccc1 | RNA-dependent RNA polymerase | Hepatitis C virus |  | IC50 | >10 µM |
| O=C(O)c1sc(-c2ccccc2)cc1N(Cc1cccc(Cl)c1)C(=O)C1CC1 | NS3 ATPase | Hepatitis C virus |  | IC50 | 5–20 µM |
| O=C(O)c1nc(-c2sccc2NC(=O)C(NC2CCCC2)c2ccccc2)[nH]c(=O)c1O | HCV polymerase | Hepatitis C virus |  | IC50 | <25 µM |
| O=C(O)c1ccc2c(c1)nc(-c1ccc3nc(-c4cccc(OCCCN5CCCC5)c4)ccc3c1)n2C1CCCCC1 | NS5B polymerase | Hepatitis C virus | 100 µM | inhibition | 96.83% |
| Cc1ccc(C(=O)N(c2cc(-c3ccccc3)sc2C(=O)O)C(C)C)c(C#N)c1 | NS3 ATPase | Hepatitis C virus |  | IC50 | 5–20 µM |
| CNC(=O)c1c(-c2ccc(F)cc2)oc2cc(C3CCCN3C(C)=O)c(OC)cc12 | Nonstructural protein 5B | Hepatitis C virus |  | IC50 | ≤0.5 µM |
| O=C(O)c1nc(-c2cccc(C#CCO)c2)[nH]c(=O)c1O | HCV polymerase | Hepatitis C virus |  | IC50 | <100 µM |
| CCOC(=O)C1=CN(N2CCN(c3nc(Nc4ccc5[nH]ncc5c4)nc(OC)n3)CC2)C(SC)N=C1 | DNA polymerase | Hepatitis B virus | 1 µg/mL | inhibition | 39% |
| CNC(=O)c1c(-c2ccc(F)cc2)oc2cc(Cl)c(OC)cc12 | Nonstructural protein 5B | Hepatitis C virus |  | IC50 | ≤0.5 µM |
| O=C(O)c1sc(-c2ccccc2)cc1NS(=O)(=O)c1ccc(F)c(F)c1F | NS3 ATPase | Hepatitis C virus |  | IC50 | 5–20 µM |
| CNC(=O)C1CCN(c2nc(Nc3ccc4[nH]ncc4c3)nc(OC)n2)CC1 | Nonstructural protein 5B | Hepatitis C virus | 1 µg/mL | inhibition | 33% |
| CCNc1cc2oc(-c3ccc(F)cc3)c(C(=O)NC)c2c(Cl)c1OS(C)(=O)=O | Nonstructural protein 5B | Hepatitis C virus |  | IC50 | ≤0.5 µM |
| O=C(O)c1cc2nc(-c3ccc(F)cc3)cc(-c3ccc(F)cc3)n2n1 | RNA-dependent RNA polymerase | Hepatitis C virus |  | IC50 | >10 µM |
| Nc1cc(-c2ccccc2)sc1-c1ccc2cc(-c3nc4cc(C(=O)O)ccc4n3C3CCCCC3)ccc2n1 | NS5B polymerase | Hepatitis C virus | 100 µM | inhibition | 104% |
| O=C(NCc1ccccc1C(F)(F)F)Nc1ccsc1-c1nc(C(=O)O)c(O)c(=O)[nH]1 | HCV polymerase | Hepatitis C virus |  | IC50 | <25 µM |
| COc1nc(Nc2ccc3cn[nH]c3c2)nc(N2CCN(C(=O)c3cccnc3)CC2)n1 | DNA polymerase | Hepatitis B virus | 0.01 µg/mL | inhibition | 10% |
| CC(=O)N(Cc1ccccc1)c1cc(-c2ccccc2)sc1C(=O)O | NS3 ATPase | Hepatitis C virus |  | IC50 | <5 µM |
| COc1ccc(S(=O)(=O)Nc2ccccc2-c2nc(C(=O)O)c(O)c(=O)[nH]2)cc1 | HCV polymerase | Hepatitis C virus |  | IC50 | <100 µM |
| COc1nc(NCCCn2ccnc2)nc(Nc2ccc3cn[nH]c3c2)n1 | DNA polymerase | Hepatitis B virus | 0.1 µg/mL | inhibition | 41% |
| Cc1c(Cl)cc(F)cc1S(=O)(=O)NC(=O)Nc1cscc1-c1nc(C(=O)O)c(O)c(=O)[nH]1 | HCV polymerase | Hepatitis C virus |  | IC50 | <25 µM |
| O=C(O)c1sc(-c2ccccc2)cc1NC(=O)N1CCN(c2ccc([N+](=O)[O-])cc2)CC1 | NS3 ATPase | Hepatitis C virus |  | IC50 | <5 µM |
| CNC1N=C(OC)N=C(Nc2ccc3cn[nH]c3c2)N1CN | DNA polymerase | Hepatitis B virus | 1 µg/mL | inhibition | 55% |
| CNC(=O)c1c(-c2ccc(Cl)c(F)c2)oc2ccc(OC)cc12 | Nonstructural protein 5B | Hepatitis C virus |  | IC50 | ≤0.5 µM |
| Cc1ccccc1S(=O)(=O)Nc1cc(-c2cn[nH]c2)sc1C(=O)O | NS3 ATPase | Hepatitis C virus |  | IC50 | <5 µM |
| O=C(O)c1cc2nc(-c3ccc(C(F)(F)F)cc3)cc(-c3ccc(Cl)cc3Cl)n2n1 | RNA-dependent RNA polymerase | Hepatitis C virus |  | IC50 | >10 µM |
| COc1ccc(-c2ccc(Cl)cc2)c(-c2ccc3cc(-c4nc5cc(C(=O)O)ccc5n4C4CCCCC4)ccc3n2)c1 | NS5B polymerase | Hepatitis C virus | 33 µM | inhibition | 101% |
| COc1nc(Nc2ccc3cn[nH]c3c2)nc(NC2CC2)n1 | DNA polymerase | Hepatitis B virus | 1 µg/mL | inhibition | 54% |
| CC(=O)Nc1ccc(COC(=O)Nc2ccsc2-c2nc(C(=O)O)c(O)c(=O)[nH]2)cc1 | HCV polymerase | Hepatitis C virus |  | IC50 | <25 µM |
| CCC(=O)N(Cc1ccccc1)c1cc(-c2ccccc2)sc1C(=O)O | NS3 ATPase | Hepatitis C virus |  | IC50 | <5 µM |
| COc1ccc(-c2ccc(Cl)cc2)c(-c2ccc3cc(-c4nc5cc(C(=O)O)ccc5n4C4CCNCC4)ccc3n2)c1 | NS5B polymerase | Hepatitis C virus | 33 µM | inhibition | 32.53% |
| CNC(=O)c1c(-c2ccc(F)cc2)oc2cc(N(C)S(C)(=O)=O)c(OC(C)C)cc12 | Nonstructural protein 5B | Hepatitis C virus |  | IC50 | ≤0.5 µM |
| COc1ccc(-c2cccc(C)c2)c(-c2ccc3cc(-c4nc5cc(C(=O)O)ccc5n4C4CCCCC4)ccc3n2)c1 | NS5B polymerase | Hepatitis C virus | 33 µM | inhibition | 103% |
| COc1nc(Nc2ccc3cn[nH]c3c2)nc(N2CCCC2)n1 | DNA polymerase | Hepatitis B virus |  | IC50 | 0.1–1 µg/mL |
| Cc1ccccc1S(=O)(=O)Nc1cc(-c2ccc(C(=O)O)cc2)sc1C(=O)O | NS3 ATPase | Hepatitis C virus |  | IC50 | <5 µM |
| NC(=O)CNC(=O)c1ccc(-c2ccccc2)c(-c2ccc3cc(-c4nc5cc(C(=O)O)ccc5n4C4CCCCC4)ccc3n2)c1 | NS5B polymerase | Hepatitis C virus | 33 µM | inhibition | 99.2% |
| O=C(O)c1cc2nc(-c3ccc(OCc4cccc(C(F)(F)F)c4)cc3)c(C3CCCCC3)c(=O)n2[nH]1 | RNA-dependent RNA polymerase | Hepatitis C virus |  | IC50 | <1 µM |
| COC(=O)[C@@H]1CCCN1c1nc(Nc2ccc3cn[nH]c3c2)nc(OC)n1 | Nonstructural protein 5B | Hepatitis C virus | 10 µg/mL | inhibition | 42% |
| O=C(Cc1cccnc1)Nc1ccsc1-c1nc(C(=O)O)c(O)c(=O)[nH]1 | HCV polymerase | Hepatitis C virus |  | IC50 | <25 µM |
| CNC(=O)c1c(-c2ccc(F)cc2)oc2cc(C3CCCN3S(C)(=O)=O)c(OC)cc12 | Nonstructural protein 5B | Hepatitis C virus |  | IC50 | ≤0.5 µM |

3 of the rows above, restated:

compound | target | species | dose | endpoint | value
O=C(O)c1sc(-c2ccccc2)cc1NC(=O)N1CCN(c2ccc([N+](=O)[O-])cc2)CC1 | NS3 ATPase | Hepatitis C virus |  | IC50 | <5 µM
COc1ccc(-c2ccc(Cl)cc2)c(-c2ccc3cc(-c4nc5cc(C(=O)O)ccc5n4C4CCNCC4)ccc3n2)c1 | NS5B polymerase | Hepatitis C virus | 33 µM | inhibition | 32.53%
O=C(Cc1cccnc1)Nc1ccsc1-c1nc(C(=O)O)c(O)c(=O)[nH]1 | HCV polymerase | Hepatitis C virus |  | IC50 | <25 µM

An empty or dashed field is not shown. a–b is a range or a potency band. Inhibition is in % at the dose shown (toxicity tests: loss of growth or viability). ICn is the concentration giving n% inhibition.